The values below come from PubChem BioAssay.

The entries are a selection whose mix differs from that of the whole data set. The source made the active and inactive calls.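 Rule for the calls, unless noted: active = mean inhibition above the mean of solvent-only control wells plus 3 SD (cut at about 4% in these data); inactive = the rest.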

The nature of test [1]: growth loss of phage-infected E. coli expressing H. pylori AddAB, confirmation, AddAB inhibitor project, absorbance, E. coli V3065, T4 phage, triplicate (AID 488942;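 active = mean inhibition above a set limit taken from the earlier primary screen, cut at about 13% in these data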;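 note: higher means less bacterial growth since AddAB block lets phage replicate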). To be noted: OD, at 11.9 µM, hits give high values, T4 phage with gene 2 nonsense mutations.
Test [2] is described as follows: growth loss of RecBCD+ E. coli with mutant T4 phage, counter-screen for AddAB inhibitor project, absorbance, V66 E. coli (AID 488955).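 Note: optical density read after an 18 h incubation at 37 °C.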 To be noted: OD growth, at 11.9 µM, hits give high values. For orientation: Counterscreens check selectivity or assay interference.
Test [3] is described as follows: bacterial viability inhibition counter-screen, confirmation, counter-screen for AddAB inhibitor project, absorbance (AID 488956; in the data active = inhibition above about 25%). The conditions noted are these: absorbance (AddAB counterscreen), at 11.9 µM, hits give high values.
Test [4] is described as follows: GAL4-VP16 reporter modulators, confirmation, counter-screen for NR2E3 agonist project, cell-based, luminescence, CHO-S, high throughput (AID 624379;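 active = mean inhibition above a cutoff equal to the average over all tested compounds plus one standard deviation, cut at about 70% in these data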;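 note: luciferase from a UAS reporter driven by GAL4-VP16 transactivation; 0% = DMSO with VP16-transfected cells and 100% = DMSO with cells lacking VP16; higher means less reporter light so more repression of VP16 activity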). To be noted: CHO-S GAL4-VP16 luciferase reporter, at 3.98 µM, hits give high values.
Test [5] can be described thus: growth loss of phage-infected RecBCD+ E. coli, confirmation, RecBCD inhibitor project, absorbance, E. coli V66, T4 gene 2 phage (AID 651982;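 active = mean inhibition over triplicates exceeding the hit threshold derived in the original primary screen, cut at about 11% in these data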). To be noted: E. coli V66 + T4 2- phage, growth OD; at 11.9 µM; hits give high values.
The nature of test [6]: E. coli viability inhibition, counter-screen for RecBCD inhibitor project, absorbance, high throughput (AID 651983; in the data active = inhibition above about 20%;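 note: E. coli strain V66 grown with compound alone and no phage infection; 0% = bacteria with DMSO vehicle only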). The conditions noted are these: absorbance (OD) growth, at 11.9 µM, hits give high values.
Test [7] in a line: growth loss of phage-infected AddAB-carrying E. coli, confirmation, counter-screen for RecBCD inhibitor project, absorbance, E. coli V3065, T4 phage (AID 651984;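 active = mean inhibition above the solvent-only control wells' mean plus 3 SD, cut at about 22% in these data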;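 note: higher means less bacterial growth from phage killing when AddAB is blocked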). To be noted: E. coli expressing H. pylori AddAB + T4 phage, OD growth; at 11.9 µM; hits give high values; gene 2 mutant T4, recBCD-deleted host.
The nature of test [8]: Gal4-VP16 luciferase reporter inhibitors, counter-screen for COUP-TFII antagonist project, cell-based, luminescence, HEK293 (AID 687007; in the data active = inhibition above about 13%). To be noted: at 8.5 µM, hits give high values. In general terms: Reporter assays use an easily measured gene product as a stand-in for the process of interest.
Test [9] deals with HIV-1 integrase (multimerization). In words: HIV-1 IN multimer formation enhancers, counter-screen for LEDGF/p75 integration inhibitor project, biochemical, TR-FRET (AID 1053131; in the data active = activation above about 8.9%). To be noted: TR-FRET HIV-1 integrase multimerization, at 7.7 µM, hits give high values.

As for `O=[N+]([O-])c1cc([N+](=O)[O-])c(-c2ccn[nH]2)s1`, the inhibition (as a rule, the relative decrease from the control value, in per cent) in test [1] is active: 94.4%; in test [2] it was active: 18.4%; in [3], active: 40.2%.

As for `CC(=O)NC(SC(=S)N(C)C)C(Cl)(Cl)Cl` (stereo not drawn), the inhibition in test [4] was inactive: -17.4%.

Regarding `O=[N+]([O-])c1cccc2n[nH]nc12`, the inhibition in test [1] was active: 99.8%; in test [2], active: 13.1%; in test [3] it was active: 50.4%; in test [5], active: 11.5%; in test [6] it was inactive: 13%; in [7], active: 84.5%.

For the compound `CC(=O)NC(SC(=S)N(CC(C)C)CC(C)C)C(Cl)(Cl)Cl` (stereo not drawn), the results for the inhibition in [1], in [2] and in [3] were active: 33.1%, active: 14% and active: 28.1%, respectively.

`C[N+]1=C2C=CC=CC=C2SC12C([N+](=O)[O-])=CC([N+](=O)[O-])=C[C-]2[N+](=O)[O-]` (stereo not drawn): the inhibition in [4] was inactive: -7.84%; in test [8], active: 91.5%.

In the case of `Nc1cccc2ccc([As](=O)(O)O)cc12`, in test [9], the activation was active: 61.6%.

Consider `O=P(Nc1nccs1)(c1ccccc1)c1nc2ccccc2s1` (stereo not drawn), for which the inhibition in test [1] is inactive: 4.87%; in test [2] it was inactive: -2.64%; in test [3], inactive: -1.86%.

For `O=C(O)c1ccccc1[As](=O)(O)O`, the inhibition was active: 65.8% in test [5], active: 65.4% in test [6] and active: 27.3% in test [7].

With `Nc1cccc2c([As](=O)(O)O)cccc12`, the activation in test [9] was active: 102%.
